# In the supplement of paper PMC10933113:
# ± gives the uncertainty stated by the source. This is a selection; strong and weak results do not stand in their true shares.
# Tested on: THP-1
# Assay: CD86 surface expression induction over DMSO control (% over DMSO); higher = stronger dendritic cell activation
# Settings: 10 µM; exposure time: 24 h
# Description: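 hCLAT-like CD54 and CD86 surface expression on THP1 cells after 24 h exposure at a single concentration (highest non-cytotoxic concentration, or 100-200 µM if not cytotoxic). Flow cytometry (iQue) was run on 5,000 live cells.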
row,SMILES,CD86 surface expression induction
1,C[CH2][Sn]([Br])([CH2]C)[CH2]C [Triethyltin bromide],101 ± 15
